The target of the data set is SARS-CoV-2 nucleocapsid (N) protein, full-length (SARS-CoV-2 (protein amplified from …, UniProt A0A6B9VLF5 1-419)). As to the kind of experiment: fluorescence polarization. The following applies: protein: recombinant; tags: 6xHis (pET28a-TEV), not cleaved; chain copies: 2; label: 5'-FITC. (Polarisation of emitted light reports the rotation of a fluorescent probe.)

B1: RNA3 (arm after UUUUUU deleted) (ssRNA)
RNA: CACUCACUGUCUUUUUU
Regarding B1, the Kd – broadly, the equilibrium constant for the complex coming apart – was determined as 149 ± 7.1 nM.

B2: RNA4 (also lacks UUUUUU) (ssRNA)
RNA: CACUCACUGUC
Consider B2, for which the Kd was 973 ± 235 nM.

The values are drawn from article PMC9628480, “Discovery and structural characterization of chicoric acid as a SARS-CoV-2 nucleocapsid protein ligand and RNA binding disruptor”.
